Anti-infective test results gathered from many reports (values: NIAID ChemDB through PubChem).

Common to all: enzyme or target tests; species: HIV-1; protein: Reverse transcriptase; read-out: fold resistance

Conditions beyond the fields shown may differ between rows. Fold resistance has wild type as its base. Two numbers with a dash give a range or band. An empty or dashed field is not shown.

compound	strain	read by	mutations	result
CCc1ccc(-n2c(Br)nnc2SCC(=O)Nc2ccc(C(=O)NCCN(C)C)cc2Cl)c2ccccc12	-	nucleotide incorporation / radiometric	RT-Y188L	>2
CCN1c2ncc(CCOc3ccc(C(=O)Nc4ccc(CC(=O)O)cc4)cc3C)cc2C(=O)N(C)c2cccnc21	IIIB	nucleotide incorporation / radiometric	RT-K103N Y181C	1
CCN1c2ncc(CCc3ccc(N(C)S(C)(=O)=O)cc3)cc2C(=O)N(C)c2ccc(Cl)nc21	-	nucleotide incorporation / radiometric	RT-Y181C	0.86
CCc1ccc(-n2c(Br)nnc2SCC(=O)Nc2ccc(C(=O)O)cc2C)c2ccccc12	-	nucleotide incorporation / radiometric	RT-Y188L	>2
CCCc1cc(=O)oc2c3c(c4c(c12)OC(C)(C)C=C4)O[C@H](C)C[C@@H]3O	-	nucleotide incorporation / radiometric	RT-Y188H	12
CC1C(Sc2nnnn2-c2cccc3ccccc23)C1c1ccccc1Cl	-	fluorescence	RT-K103N Y181C	≥1.33
CC(C)=CCOc1cc(NC(=S)c2ccsc2C)ccc1Cl	-	-	RT-M184V	4
CCN1c2ncc(CCOc3cccc4[nH]c(=O)n(C)c34)cc2C(=O)N(C)c2cccnc21	IIIB	nucleotide incorporation / radiometric	RT-K103N Y181C	>1
Nc1ccn([C@H]2CC[C@@H](COP(=O)(O)OP(=O)(O)OP(=O)(O)O)O2)c(=O)n1	-	nucleotide incorporation	RT-K65R	3.5
CCN1c2ncc(CCOc3ccc(-c4ccc(CC(=O)O)cc4Cl)cc3C)cc2C(=O)N(C)c2cccnc21	IIIB	nucleotide incorporation / radiometric	RT-K103N Y181C	1
NCCCCNc1nc(Cc2ccccc2)cc(=O)[nH]1	-	-	RT-Y188L	>14.3
Cc1ccc(-n2c(SCC(=O)Nc3ccc(S(=O)(=O)NCCC(=O)O)cc3Cl)nnc2C(F)F)c2c1CCCC2	-	nucleotide incorporation / radiometric	RT-Y188L	>2
CCOC(=O)c1c(C(C)C)c(C#N)c(=N)n2ccccc12	-	-	RT-Y188L	0.977
O=C(CSc1nnc(Br)n1-c1ccc(C2CCC2)c2ccccc12)Nc1ccc(C(=O)O)cc1Cl	-	nucleotide incorporation / radiometric	RT-Y188L	>2
CCN1c2ncc(CCc3ccncc3)cc2C(=O)N(C)c2ccc(Cl)nc21	IIIB	RT activity	RT-K103N	0.625
CCN1c2ncc(CCOc3ccc(C(=O)O)c4c3CCN(S(C)(=O)=O)C4)cc2C(=O)N(C)c2cccnc21	-	nucleotide incorporation / radiometric	RT-K103N Y181C	1
CCN1c2ncc(CCOc3cccc4c3CNC(=O)N4CC(=O)O)cc2C(=O)N(C)c2cccnc21	IIIB	nucleotide incorporation / radiometric	RT-K103N Y181C	>2
Cc1c(Cc2ccccc2)nc(SCCCCO)[nH]c1=O	-	-	RT-L100I	1.04
NS(=O)(=O)c1ccc(NC(=O)CSc2nnc(C(F)F)n2-c2ccc(C3CCC3)c3ccccc23)c(Cl)c1	-	nucleotide incorporation / radiometric	RT-Y188L	>1
CCN1c2ncc(CCOc3ccc(-c4nn[nH]n4)cc3C)cc2C(=O)N(C)c2cccnc21	IIIB	nucleotide incorporation / radiometric	RT-K103N Y181C	>2
Cc1occc1C(=S)Nc1ccc(Cl)c(/C=N/OC(C)(C)C)c1	-	nucleotide incorporation / radiometric	RT-L100I	>3.85
CCN1c2ncc(CCOc3ccc(-n4cc(C(=O)O)nn4)cc3C)cc2C(=O)N(C)c2cccnc21	IIIB	nucleotide incorporation / radiometric	RT-K103N Y181C	>1
CCN1c2ncc(C3(c4ccccc4)CO3)cc2C(=O)N(C)c2ccc(Cl)nc21	-	nucleotide incorporation / radiometric	RT-Y181C	1
Cc1c(Cc2ccccc2)nc(NCCCCN)[nH]c1=O	-	-	RT-K103N	>10.3
CC(C)[C@H](NC(=O)c1ccc(NC(=O)CSc2nnc(Br)n2-c2ccc(C3CC3)c3ccccc23)c(Cl)c1)C(=O)O	-	nucleotide incorporation / radiometric	RT-Y181C	<1
C=CCO/N=C/c1cc(NC(=S)c2ccoc2C)ccc1Cl	-	nucleotide incorporation / radiometric	RT-K103N	>8.33
CCN1c2nc(Cl)ccc2NC(=O)c2cc(CCc3cccc(NS(C)(=O)=O)c3)cnc21	-	nucleotide incorporation / radiometric	RT-Y181C	0.84
CNS(=O)(=O)c1ccc(NC(=O)CSc2nnc(C(F)F)n2-c2ccc(C)c3ccccc23)c(Cl)c1	-	nucleotide incorporation / radiometric	RT-Y188L	>2
CCN1c2ncc(CCOc3cccc4c3CC(=O)N4)cc2C(=O)N(C)c2cccnc21	IIIB	nucleotide incorporation / radiometric	RT-K103N Y181C	>1
C=Cc1nc(SC)nc(N(C)C)c1Cl	-	nucleotide incorporation / radiometric	RT-K103N	>4.4
CCN1c2ncc(CCOc3ccc(CCC(=O)O)c4ccccc34)cc2C(=O)N(C)c2ccc(Cl)nc21	-	nucleotide incorporation / radiometric	RT-K103N Y181C	1–10
CCCCNC(=O)c1ccc(NC(=O)CSc2nnc(Br)n2-c2ccc(CC)c3ccccc23)c(Cl)c1	-	nucleotide incorporation / radiometric	RT-Y181C	<1
C=C1c2cc(CCOc3ccc(NS(C)(=O)=O)c4ccccc34)cnc2N(CC)c2ncccc2N1C	-	nucleotide incorporation / radiometric	RT-Y188L	>10
CCN1c2ncc(CCOc3cccc4c3CNC(=O)N4)cc2C(=O)N(C)c2cccnc21	IIIB	nucleotide incorporation / radiometric	RT-K103N Y181C	>2
CCN(CC)c1ccc(-n2nnnc2SCC(=O)Nc2ccc(S(N)(=O)=O)cc2C)c(Cl)c1	-	fluorescence	RT-K103N Y181C	≥1.33
CCN1c2ncc(CCOc3cccc4c3CNC(=O)O4)cc2C(=O)N(C)c2cccnc21	IIIB	nucleotide incorporation / radiometric	RT-K103N Y181C	1
CN(CC(=O)O)C(=O)c1ccc(NC(=O)CSc2nnc(Br)n2-c2ccc(C3CC3)c3ccccc23)c(Cl)c1	-	nucleotide incorporation / radiometric	RT-Y188L	>2
C=Cc1cc(N(C)C)nc(SCc2ccc(OC)cc2)n1	-	nucleotide incorporation / radiometric	RT-K103N	>1.23
Cc1occc1C(=S)Nc1ccc(Cl)c(C(=O)OCC2CC2)c1	-	nucleotide incorporation / radiometric	RT-P236L	2
CCOC(=O)CNC(=O)c1ccc(NC(=O)CSc2nnc(Br)n2-c2ccc(C3CC3)c3ccccc23)c(Cl)c1	-	nucleotide incorporation / radiometric	RT-Y181C	>1
O=P(O)(O)OP(=O)(O)O	-	nucleotide incorporation / radiometric	RT-Y115F	1.57
O=C(CSc1nnc(Br)n1-c1ccc(C2CC2)cc1C(F)(F)F)Nc1ccc(C(=O)O)cc1Cl	-	nucleotide incorporation / radiometric	RT-Y188L	>2
CCN1c2ncc(CCOc3cccc4c3CNC(=O)N4)cc2C(=O)Nc2c(C)ccnc21	IIIB	nucleotide incorporation / radiometric	RT-K103N Y181C	>2
Cc1cc(S(N)(=O)=O)ccc1NC(=O)CSc1nnc(CF)n1-c1c(C)cc(C)c2ccccc12	-	nucleotide incorporation / radiometric	RT-Y188L	>2
CC(C)(C)c1ccc(-n2nnnc2SCC(=O)Nc2ccccc2Cl)c(Br)c1	-	fluorescence	RT-K103N Y181C	>1.5
COc1ccc2c(C)ccc(-n3c(Br)nnc3SCC(=O)Nc3ccc(S(N)(=O)=O)cc3Br)c2c1	-	nucleotide incorporation / radiometric	RT-Y188L	>1
Nc1nc2c(ncn2[C@H]2CC[C@@H](COP(=O)(O)OP(=O)(O)OP(=O)(O)O)O2)c(=O)[nH]1	-	-	RT-K65R	1
CCc1ccc(-n2c(Br)nnc2SCC(=O)Nc2ccc(C(=O)N3CCC(O)CC3)cc2Cl)c2ccccc12	-	nucleotide incorporation / radiometric	RT-Y188L	>2
CCN1c2ncc(CCOc3ccc4cc(CC(=O)O)ccc4c3)cc2C(=O)N(C)c2cccnc21	-	nucleotide incorporation / radiometric	RT-V106A	1–10
CCN1c2ncc(CCOc3cccc4c3ccc[n+]4[O-])cc2C(=O)Nc2c(C)cc(Cl)nc21	-	nucleotide incorporation / radiometric	RT-K103N V108I	8
Cc1cc(S(N)(=O)=O)ccc1NC(=O)COc1ccccc1C(=O)c1cc(Cl)cc(C#N)c1	NNRTI-resistant	nucleotide incorporation / radiometric	RT-K103N Y181C	0.6
NS(=O)(=O)c1ccc(NC(=O)CSc2nncn2-c2ccc(C3CC3)c3ccccc23)c(Cl)c1	-	nucleotide incorporation / radiometric	RT-Y188L	>2
CCN1c2ncc(CCOc3cccc4c3CNC(=O)C4)cc2C(=O)N(C)c2cccnc21	IIIB	nucleotide incorporation / radiometric	RT-K103N Y181C	1
CC(C)=CCOc1cc(NC(=S)c2ccoc2C)ccc1Cl	-	-	RT-K103N	6.97
CCCc1ccc(-n2c(Br)nnc2SCC(=O)Nc2ccc(S(N)(=O)=O)cc2Cl)c2ccccc12	-	nucleotide incorporation / radiometric	RT-Y188L	>2
CCN1c2ncc(CCOc3ccc(C(=O)Nc4ccc(C(=O)O)cc4)cc3C)cc2C(=O)N(C)c2cccnc21	IIIB	nucleotide incorporation / radiometric	RT-K103N Y181C	1
NS(=O)(=O)c1ccc(NC(=O)CSc2nnc(Br)n2-c2c(Cl)cc(C3CCC3)c3ccccc23)c(Cl)c1	-	nucleotide incorporation / radiometric	RT-Y188L	>1
CCc1cc(NCc2nc3c(C)ccc(C)c3o2)c(=O)[nH]c1C	-	nucleotide incorporation	RT-Y188F	1
CCN1c2ncc(CCOc3ccc4on(C(C)(C)C)c(=O)c4c3)cc2C(=O)Nc2c(C)cc(F)nc21	IIIB	nucleotide incorporation / radiometric	RT-K103N Y181C	>1
Cc1cc(C)c2ccccc2c1-n1c(SCC(=O)Nc2ccc(S(N)(=O)=O)cc2Cl)nnc1C(F)(F)F	-	nucleotide incorporation / radiometric	RT-Y188L	>2

Repeating the first 6 entries:

compound,strain,read by,mutations,result
CCc1ccc(-n2c(Br)nnc2SCC(=O)Nc2ccc(C(=O)NCCN(C)C)cc2Cl)c2ccccc12,-,nucleotide incorporation / radiometric,RT-Y188L,>2
CCN1c2ncc(CCOc3ccc(C(=O)Nc4ccc(CC(=O)O)cc4)cc3C)cc2C(=O)N(C)c2cccnc21,IIIB,nucleotide incorporation / radiometric,RT-K103N Y181C,1
CCN1c2ncc(CCc3ccc(N(C)S(C)(=O)=O)cc3)cc2C(=O)N(C)c2ccc(Cl)nc21,-,nucleotide incorporation / radiometric,RT-Y181C,0.86
CCc1ccc(-n2c(Br)nnc2SCC(=O)Nc2ccc(C(=O)O)cc2C)c2ccccc12,-,nucleotide incorporation / radiometric,RT-Y188L,>2
CCCc1cc(=O)oc2c3c(c4c(c12)OC(C)(C)C=C4)O[C@H](C)C[C@@H]3O,-,nucleotide incorporation / radiometric,RT-Y188H,12
CC1C(Sc2nnnn2-c2cccc3ccccc23)C1c1ccccc1Cl,-,fluorescence,RT-K103N Y181C,≥1.33